Experimental data reported in US8829030B2 (priority 2002, dated 2014).
pIC50: −log10 of the molar value. Only a part of the results on these compounds is given; other tests are left out.

Protein sequences, listed by entry. Tags and fused reporters are not part of them. Residues count along the entry.
UniProt P26663, 2420-3010 limits assumed: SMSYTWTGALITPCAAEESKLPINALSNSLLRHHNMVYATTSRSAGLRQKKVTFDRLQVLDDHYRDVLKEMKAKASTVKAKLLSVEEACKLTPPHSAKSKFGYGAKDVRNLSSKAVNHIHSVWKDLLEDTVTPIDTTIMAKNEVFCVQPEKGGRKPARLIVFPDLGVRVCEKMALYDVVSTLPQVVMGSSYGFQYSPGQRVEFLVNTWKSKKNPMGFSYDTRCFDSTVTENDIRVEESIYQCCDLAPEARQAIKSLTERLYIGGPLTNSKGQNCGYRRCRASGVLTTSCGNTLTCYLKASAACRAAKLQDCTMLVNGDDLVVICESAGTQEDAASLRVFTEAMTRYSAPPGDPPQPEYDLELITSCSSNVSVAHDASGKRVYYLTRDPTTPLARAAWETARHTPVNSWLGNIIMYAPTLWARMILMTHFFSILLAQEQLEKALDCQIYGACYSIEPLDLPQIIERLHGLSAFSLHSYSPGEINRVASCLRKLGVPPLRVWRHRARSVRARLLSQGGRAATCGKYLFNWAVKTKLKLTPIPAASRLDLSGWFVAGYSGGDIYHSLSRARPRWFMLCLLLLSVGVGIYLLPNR

Target: recombinant HCV RNA-dependent RNA polymerase (NS5B protein) (Hepatitis C virus genotype 1b, UniProt P26663)
Experiment: In vitro HCV RdRp Flashplate scintillation proximity assay (STREP-FLASH ASSAY)
Assay type: biochemical, HCV-Bk strain
Conditions: read-out: Activity (polymerase activity, IC50); 100 nM recombinant HCV NS5B, 25 μM UTP, polyrA/biotinylated-oligo dT, 2 hrs at room temperature

Structure (SMILES)	pIC50
CC1CCC(C(=O)N(c2cc(-c3ccccc3)sc2C(=O)O)C2CCN(C(C)C)CC2)CC1 (stereo not drawn)	> 5.30
CC1CCC(C(=O)N(c2cc(-c3cccc(F)c3)sc2C(=O)O)C2CCN(C)CC2)CC1 (stereo not drawn)	> 5.30
COc1ccc(-c2cc(N(C(=O)C3CCC(C)CC3)C3CCN(C)CC3)c(C(=O)O)s2)cc1 (stereo not drawn)	> 5.30
CC1CCC(C(=O)N(c2cc(-c3ccc(Cl)cc3)sc2C(=O)O)C2CCN(C)CC2)CC1 (stereo not drawn)	> 5.30
CC1CCC(C(=O)N(c2cc(-c3ccccc3)sc2C(=O)O)C2CC[N+](C)([O-])CC2)CC1 (stereo not drawn)	> 5.30
CC1CCC(C(=O)N(c2cc(-c3ccc(C#N)cc3)sc2C(=O)O)C2CCN(C)CC2)CC1 (stereo not drawn)	> 5.30
CC1CCC(C(=O)N(c2cc(-c3ccc(F)cc3)sc2C(=O)O)C2CCN(C)CC2)CC1 (stereo not drawn)	> 5.30
Cc1ccc(-c2cc(N(C(=O)C3CCC(C)CC3)C3CC[NH+](C)CC3)c(C(=O)O)s2)cc1 (stereo not drawn)	> 5.30
CCN1CCC(N(C(=O)C2CCC(C)CC2)c2cc(-c3ccccc3)sc2C(=O)O)CC1 (stereo not drawn)	> 5.30
CC1CCC(C(=O)N(c2cc(-c3ccccc3)sc2C(=O)O)C2CCN(Cc3ccccc3)CC2)CC1 (stereo not drawn)	> 5.30
CC1CCC(C(=O)N(c2cc(-c3ccc([N+](=O)[O-])cc3)sc2C(=O)O)C2CCN(C)CC2)CC1 (stereo not drawn)	> 5.30
CN1CCC(N(c2cc(-c3ccccc3)sc2C(=O)O)C(=O)[C@H]2CC[C@H](C)CC2)CC1	> 5.30
